Reference: publication PMC10113987 (EJNMMI Research, 2023)

Assay: general procedure: Fmoc solid-phase peptide synthesis; 2-CTC resin; HBTU/DIPEA
Conditions: whole synthesis, scale 0.1 mmol

“DOTA-Ahx-Axh-Glu-Trp-Pro-Arg-Pro-Gln-Ile-Pro-Pro-OH” gave an isolated mass of 33.6 mg.
